Measured values from several laboratories, pooled; numbers as filed in NIAID ChemDB.

Common to all: whole-cell or culture tests; organism: HIV-1; cell line: PBMC; endpoint: EC50

Blank or dashed fields: not listed here.

| smiles | strain | mutations | read by | setting | result |
|---|---|---|---|---|---|
| CCO/N=C(\c1ccc(Br)cc1)C1CCN(C2(C)CCN(C(=O)c3c(C)cc[n+]([O-])c3C)CC2)CC1 | 301657 Clinical isolates |  |  |  | <0.043 µM |
| O=c1[nH]cnc2c1ncn2[C@H]1CC[C@@H](CO)O1 | HXB2D |  | p24 / ELISA |  | 7.2 µM |
| COc1c(C)c2c(c(O)c1C/C=C(\C)CCC(=O)O)C(=O)OC2 | MDR (RT D67N K70R T215Y K219Q) RTMCY | RT-D67N K70R T215Y K219Q | p24 |  | 0.31 µM |
| CC(C)CN(C[C@@H](O)[C@H](Cc1ccccc1)NC(=O)O[C@H]1CCOC1)S(=O)(=O)c1ccc(N)cc1 | 14aPre WT |  | p24 |  | 0.04 µM |
| CCCCC/C=C\C/C=C\C/C=C\C/C=C\CCCC(=O)NCCc1ccc(O)c(O)c1 | NL4-3-Luc VSV pseudotyped |  | luciferase |  | <1 µM |
| c1cc(CN2CCCNCCNCCCNCC2)ccc1CN1CCCNCCNCCCNCC1 | 14a-Pre |  |  |  | 0.23 µM |
| Cc1c(O)cccc1C(=O)N[C@@H](CSc1ccccc1)[C@H](O)CN1C[C@H]2CCCC[C@H]2C[C@H]1C(=O)NC(C)(C)C | HXB2 | PR-M46I I47V I50V | p24 |  | <0.035 µM |
| Cc1cn([C@H]2C[C@H](N=[N+]=[N-])[C@@H](CO)O2)c(=O)[nH]c1=O | 8420 CLADE D CLADE D |  | p24 |  | 0.016 µM |
| CC1=CC(=O)[C@@H](O)[C@]2(C)[C@H]3C4(O)OC[C@]35[C@H]([C@@H](C)[C@H]4O)[C@@H](O)C(=O)O[C@@H]5C[C@@H]12 |  |  | p24 |  | 0.63 µM |
| CC[C@H](C)C(=O)O[C@H]1C[C@@H](C)C=C2C=C[C@H](C)[C@H](CC[C@@H]3C[C@@H](O)CC(=O)O3)[C@H]21 | NL4-3 |  | p24 |  | >50 µM |
| CC(C)(C)NC(=O)[C@@H]1C[C@@H]2CCCC[C@@H]2CN1C[C@@H](O)[C@H](Cc1ccccc1)NC(=O)[C@H](CC(N)=O)NC(=O)c1ccc2ccccc2n1 | NL4-3 |  | p24 |  | 0.025 µM |
| Cc1cc(C)nc(Cn2c(=O)ccn(Cc3ccccc3)c2=O)c1 | IIIB |  |  |  | 7.31 µM |
| Nc1ccn([C@@H]2CO[C@H](CO)S2)c(=O)n1 | CCR5 |  | p24 |  | 0.6 µM |
| CC(C)=CCOc1cc(NC(=S)c2ccoc2C)ccc1Cl | WEJO |  |  |  | 0.007 µM |
| Nc1nc2c(ncn2C2CC(CCP(=O)(O)O)(C(F)(F)F)CO2)c(=O)[nH]1 | LAI |  | RT activity |  | 53 µM |
| COc1ccc(S(=O)(=O)N(CC(C)C)C[C@@H](O)[C@H](Cc2ccccc2)NC(=O)O[C@H]2CO[C@@H]3O[C@H]4OCC[C@H]4[C@@H]32)cc1 |  |  | p24 / luminescence |  | >1 µM |
| Nc1nccn(Cc2cc3c(cc2Cl)C(C#CC2CC2)(C(F)(F)F)NC(=O)N3)c1=O |  |  | GFP | pseudotyped | 0.031 µM |
| CO[P@](=O)(c1cc(C)cc(/C=C/C#N)c1)c1c(C(N)=O)[nH]c2ccc(Cl)cc12 |  | K103N |  |  | 0.0009 µM |
| O=c1ccn(Cc2c(F)cccc2F)c(=O)n1Cc1c(F)cccc1F | IIIB |  |  |  | 41.7 µM |
| COC(=O)N[C@H](C(=O)N[C@@H](Cc1ccccc1)[C@@H](O)CN(Cc1ccc(-c2ccccn2)cc1)NC(=O)[C@@H](NC(=O)OC)C(C)(C)C)C(C)(C)C | ERS104pre |  | p24 / luminescence |  | 0.0027 µM |
| Cc1cc(SC2=C(O)C[C@@](CCc3ccc(N)cc3)(C(C)C)OC2=O)c(C(C)(C)C)cc1CO |  |  |  |  | 0.2–0.5 µM |
| COC(=O)C(C)CNP(=O)(OC[C@@H]1CC[C@H](n2cc(C)c(=O)[nH]c2=O)O1)Oc1ccc(Br)cc1 |  |  | RT activity |  | 1.2 µM |
| Cc1ccc(Cn2c(=O)ccn(CC#N)c2=O)c(C)c1 | IIIB |  |  |  | 114 µM |
| CC(C)CN(C[C@@H](O)[C@H](Cc1cc(F)cc(F)c1)NC(=O)O[C@H]1CCO[C@H]2OCC[C@H]21)S(=O)(=O)c1ccc2nc(NC(C)C)sc2c1 | ERS104pre | L63P | p24 / luminescence |  | 0.003 µM |
| CCn1nc(Cc2ccc(C#N)cc2)cc1C1CCN(C[C@H]2CN([C@@H](C(=O)O)C(C)(C)C)C[C@@H]2c2cccc(F)c2)CC1 | BaL |  | p24 | 50% human serum | <0.0093 µM |
| Nc1nc(NC2CC2)c2ncn([C@H]3C=C[C@@H](CO)C3)c2n1 | MDR (RT M41L D67N K70R M184V H208Y T215Y K219E) DRSM34 | RT-M41L D67N K70R M184V H208Y T215Y K219E | p24 |  | 45.34 µM |
| Cc1ccnc2c1NC(=O)c1cccnc1N2C1CC1 | RUD (RT-A98G) | RT-A98G |  |  | 0.13 µM |
| Cc1ncnc(C)c1C(=O)N1CCC(C)(N2CCN([C@@H](Cc3ccccc3)c3ccc(C(F)(F)F)cc3)[C@@H](C)C2)CC1 | ADA-M Clinical isolates |  |  |  | <0.00004 µM |
| O=c1[nH]cnc2c1ncn2[C@H]1CC[C@@H](CO)O1 | XM-ABC-resistant | RT-K65R L74V M184V Y115F | p24 |  | <38 µM |
| CCCN(C)C(=O)Oc1nsnc1-c1c(Cl)cccc1Cl | IIIB |  | p24 |  | 0.0048 µM |
| Cc1cn([C@H]2C[C@H](N=[N+]=[N-])[C@@H](CO)O2)c(=O)[nH]c1=O | KK-1 |  | p24 |  | <0.015 µg/mL |
| COC(=O)N[C@H](C(=O)N[C@@H](Cc1ccccc1)[C@@H](O)CN(Cc1ccc(-c2ccccn2)cc1)NC(=O)[C@@H](NC(=O)OC)C(C)(C)C)C(C)(C)C | 92UG037 |  | p24 / luminescence |  | 0.0038 µM |
| Cc1ccc(Cn2c(=O)ccn(CC#N)c2=O)cc1C | IIIB |  |  |  | 3.75 µM |
| Nc1nc(N)c2ncn([C@H]3CO[C@@H](CO)O3)c2n1 | LAI |  | p24 |  | 4 µM |
| CCCCOCCOc1ccc(-c2ccc3c(c2)/C=C(/C(=O)Nc2ccc([S@@](=O)Cc4cncn4CCC)cc2)CCCN3CC(C)C)cc1 | R5-18 R5 clinical isolate |  | p24 |  | 0.00044 µM |
| Cc1cn([C@H]2C[C@H](N=[N+]=[N-])[C@@H](CO)O2)c(=O)[nH]c1=O | LTLV-IIIB |  | p24 |  | 0.001 µM |
| Cc1cn([C@H]2C=C[C@@H](CO)O2)c(=O)[nH]c1=O |  |  | RT activity |  | 0.04 µM |
| CC(C)(C)NC(=O)[C@@H]1CN(Cc2cccnc2)CCN1C[C@@H](O)C[C@@H](Cc1ccccc1)C(=O)N[C@H]1c2ccccc2C[C@H]1O | BaL |  | p24 / ELISA |  | 0.029 µM |
| CO[C@H]1CCCC[C@@H](c2ccccc2)OC(=O)C(C)[C@@]2(O)OC([C@@H](C)[C@H](O)[C@H]2OC)[C@@H](C)/C=C/[C@H]1OC | LAI |  | luciferase |  | 0.38 µM |
| Cc1cc(C)cc(Cn2c(=S)ccn(Cc3c(F)cccc3F)c2=O)c1 | IIIB |  |  |  | 0.059 µM |
| Nc1ncnc2c1ncn2C1CC(CCP(=O)(O)O)(C(F)(F)F)CO1 | LAI |  | RT activity |  | 36 µM |
| C[C@]12CCC(=O)C=C1CC[C@@H]1[C@@H]2[C@@H](O)C[C@@]2(C)[C@H]1CC[C@]2(O)C(=O)COP(=O)(O)O | BRU |  | RT activity |  | >5 µg/mL |
| Cc1ccnc2c1NC(=O)c1cccnc1N2C1CC1 | BaL |  | p24 / ELISA |  | 0.019 µM |
| Nc1ncnc2c1ncn2CCOCP(=O)(O)O | LAI |  | RT activity |  | 4.25 µM |
| N#CCn1ccc(=O)n(Cc2ccc3ccccc3c2)c1=O | IIIB |  |  |  | 36.7 µM |
| Nc1nc(NC2CC2)c2ncn([C@H]3C=C[C@@H](CO)C3)c2n1 | 14aPre WT |  | p24 |  | 0.42 µM |
| CCCCN1C(=O)[C@@H]([C@H](O)C2CCCCC2)NC(=O)C12CCN(Cc1ccc(Oc3ccc(C(=O)O)cc3)cc1)CC2 | BaL |  | p24 / ELISA |  | 0.0007 µM |
| Nc1ccn([C@@H]2CS[C@H](CO)O2)c(=O)n1 | Recombinant | RT-M184V | p24 |  | 5–10 µM |
| Cc1ccc(-c2ccc3c(c2)C=C(C(=O)Nc2ccc(C[N+](C)(C)C4CCOCC4)cc2)CCC3)cc1 | JR-FL |  | p24 |  | 0.01 µM |
| Nc1ccn([C@@H]2C=C(F)[C@H](CO)O2)c(=O)n1 | LAI Laboratory isolate |  | RT activity |  | 0.03 µM |
| Cc1cn([C@H]2CC[C@@H](CO)O2)c(=O)[nH]c1=O |  |  | RT activity |  | 0.7 µM |
| C#C[C@]1(CO)O[C@@H](n2cnc3c(N)ncnc32)C=C1F | LAV |  | RT activity |  | 25.1 µM |
| Cc1cc(C)cc(Cn2c(=O)c(C)cn(Cc3ccccc3)c2=O)c1 | IIIB |  |  |  | 1.44 µM |
| CCCCN1C(=O)C(CC2CCCCC2)NC(=O)C12CCN(Cc1ccc3c(c1)OCCO3)CC2 | BaL |  | p24 |  | 0.07 µM |
| CC[C@H](C)[C@H](C(=O)O)N1C[C@H](CN2CCC(c3cc(Cc4ccc(OC)c(OC)c4)nn3CC)CC2)[C@@H](c2cccc(F)c2)C1 | BaL |  | p24 |  | <0.0055 µM |
| COC(=O)C(C)CNP(=O)(OC[C@@H]1CC[C@H](n2cc(C)c(=O)[nH]c2=O)O1)Oc1ccc(OC)cc1 |  |  | RT activity |  | 1.3 µM |
| Cc1cn([C@H]2C[C@H](N=[N+]=[N-])[C@@H](CO)O2)c(=O)[nH]c1=O | JR-CSF |  | p24 |  | 0.0059 µM |
| COc1ccc(S(=O)(=O)N(CC(C)C)C[C@@H](O)[C@H](Cc2ccccc2)NC(=O)O[C@H]2CO[C@H]3O[C@@H]4OCC[C@@H]4[C@H]32)cc1 | ERS104pre |  | p24 / luminescence |  | 0.0006 µM |
| CCC[C@@]1(CCc2ccccc2)CC(O)=C([C@H](CC)c2cccc(NS(=O)(=O)c3ccc(C(F)(F)F)cn3)c2)C(=O)O1 | Clinical isolates |  | p24 |  | 0.224 µM |
| Cc1cn([C@H]2C[C@H](F)[C@@H](CO)O2)c(=O)[nH]c1=O | K AZT-resistant (RT V75I F77L F116Y Q151M) | RT-V75I F77L F116Y Q151M | antigen |  | 0.0049 µM |

The first 5 rows once more:

smiles,strain,mutations,read by,setting,result
CCO/N=C(\c1ccc(Br)cc1)C1CCN(C2(C)CCN(C(=O)c3c(C)cc[n+]([O-])c3C)CC2)CC1,301657 Clinical isolates,,,,<0.043 µM
O=c1[nH]cnc2c1ncn2[C@H]1CC[C@@H](CO)O1,HXB2D,,p24 / ELISA,,7.2 µM
COc1c(C)c2c(c(O)c1C/C=C(\C)CCC(=O)O)C(=O)OC2,MDR (RT D67N K70R T215Y K219Q) RTMCY,RT-D67N K70R T215Y K219Q,p24,,0.31 µM
CC(C)CN(C[C@@H](O)[C@H](Cc1ccccc1)NC(=O)O[C@H]1CCOC1)S(=O)(=O)c1ccc(N)cc1,14aPre WT,,p24,,0.04 µM
CCCCC/C=C\C/C=C\C/C=C\C/C=C\CCCC(=O)NCCc1ccc(O)c(O)c1,NL4-3-Luc VSV pseudotyped,,luciferase,,<1 µM

Lines come from different laboratories, so protocols vary. a–b is a range or a potency band. ECn is the concentration giving n% inhibition of infection, replication or growth.